{"source": "paper PMC9146215", "about": "“Design of D-Amino Acids SARS-CoV-2 Main Protease Inhibitors Using the Cationic Peptide from Rattlesnake Venom as a Scaffold” (Pharmaceuticals, 2022)", "assay": "Redox cycling (H2O2 generation, HRP-phenol red) colourimetric assay", "details": "0-60 µM peptide, 1 mM TCEP, 30 min RT, absorbance 610 nm, triplicate", "note": "Non-standard residues stand in square brackets, D forms with d. Residues, ends and D or L forms follow the SMILES beside them."}
{"smiles": "COC(=O)[C@H](CCCCN)NC(=O)[C@H](CCCCN)NC(=O)[C@H](CS)NC(=O)[C@H](CS)NC(=O)[C@H](CCCCN)NC(=O)[C@H](Cc1c[nH]c2ccccc12)NC(=O)[C@H](CCCNC(=N)N)NC(=O)[C@H](Cc1c[nH]c2ccccc12)NC(=O)[C@H](CCCNC(=N)N)NC(=O)[C@H](CS)NC(=O)[C@H](CC(=O)O)NC(=O)[C@H](CCSC)NC(=O)[C@H](CCCCN)NC(C)=O", "note": "[L-CDP1] (Ac-KMDCRWRWKCCKK-OMe)", "values": [{"measurement": "H2O2 generation (redox cycling compound)", "result": "do not produce H2O2"}]}
{"smiles": "COC(=O)[C@@H](CCCCN)NC(=O)[C@@H](CCCCN)NC(=O)[C@@H](CS)NC(=O)[C@@H](CS)NC(=O)[C@@H](CCCCN)NC(=O)[C@@H](Cc1c[nH]c2ccccc12)NC(=O)[C@@H](CCCNC(=N)N)NC(=O)[C@@H](Cc1c[nH]c2ccccc12)NC(=O)[C@@H](CCCNC(=N)N)NC(=O)[C@@H](CS)NC(=O)[C@@H](CC(=O)O)NC(=O)[C@@H](CCSC)NC(=O)[C@@H](CCCCN)NC(C)=O", "note": "[D-CDP1] (Ac-[dK][dM][dD][dC][dR][dW][dR][dW][dK][dC][dC][dK][dK]-OMe)", "values": [{"measurement": "H2O2 generation (redox cycling compound)", "result": "do not produce H2O2"}]}
